Anti-infective test results gathered from many reports (values: NIAID ChemDB through PubChem).

Common to all: whole-cell or culture tests; agent: Aspergillus flavus; read-out: zone

Zone: diameter of growth inhibition.

O=C(CNC(=O)c1ccncc1)NN1C(=O)CSC1c1cccc([N+](=O)[O-])c1 ; method: agar diffusion ; dose: 50 µg/mL ; result: 24.8 mm
COc1ccc2[nH]c3nc(NNC(=O)c4ccccc4C(=O)O)c4ccccc4c3c2c1 ; strain: MTCC-1973 ; method: agar diffusion / visual reading ; dose: 25 µg/mL ; result: 5 mm
O=C(CNC(=O)c1ccncc1)NN1C(=O)CSC1c1cccc(Br)c1 ; method: agar diffusion ; dose: 100 µg/mL ; result: 18 mm
Cc1ccc(C2c3ccc4ccccc4c3Oc3nc(-c4cc5ccccc5oc4=O)[nH]c(=O)c32)cc1 ; method: agar diffusion / agar ; dose: 150 µg/mL ; result: 11 mm
[Cl][Zn+].[O-]c1cc2ccccc2cc1/C=N/NC(=S)N/N=C/c1cc2ccccc2cc1O ; method: agar diffusion / agar ; dose: 2 mg/mL ; result: 0 mm
Clc1ccc2nc3n4c(c5ccccc5c-3c2c1)NN=C(c1ccccc1)C4 ; strain: MTCC-1973 ; method: agar diffusion / visual reading ; dose: 12.5 µg/mL ; result: 7 mm
COc1cc(N2C(=N)C(=S)N(c3ccc(F)cc3)C2=O)ccc1-c1ccc(N2C(=N)C(=S)N(c3ccc(F)cc3)C2=O)cc1OC ; method: agar diffusion / agar ; dose: 5 mg/mL ; result: 16 mm
Cc1ccc(C2SCC(=O)N2NC(=O)CNC(=O)c2ccncc2)cc1 ; method: agar diffusion ; dose: 100 µg/mL ; result: 12 mm
C[C@H]1[C@H](O)[C@@H](C)/C=C/C=C/C=C/C=C/C=C/C=C/C=C/[C@H](O[C@@H]2O[C@H](C)[C@@H](O)[C@H](N)[C@@H]2O)C[C@@H]2O[C@](O)(C[C@@H](O)C[C@@H](O)CC[C@H](O)[C@@H](O)C[C@@H](O)CC(=O)O[C@H]1C)C[C@H](O)[C@H]2C(=O)O ; method: agar diffusion / agar ; dose: 150 µg/mL ; result: 25 mm
Cn1c(=O)c(-c2[nH][nH]c(=O)c2/C=N/c2cscn2)c(O)c2ccccc21 ; strain: ATCC 28542 ; method: agar diffusion ; dose: 1 mg/mL ; result: 15 mm
Cc1ccc(C2=NNc3c4ccccc4c4c5cc(Cl)ccc5nc-4n3C2)cc1 ; strain: MTCC-1973 ; method: agar diffusion / visual reading ; dose: 25 µg/mL ; result: 10 mm
COc1ccc(-c2nn(-c3ccccc3)cc2C2CC(c3ccc(SC)cc3)=NN2c2ccccc2)cc1 ; dose: 1000 µg/mL ; result: 0 mm
Cn1c(=O)c(-c2[nH][nH]c(=O)c2/C=N/c2ncccn2)c(O)c2ccccc21 ; strain: ATCC 28542 ; method: agar diffusion ; dose: 1 mg/mL ; result: 5 mm
O=C(CNC(=O)c1ccncc1)NN1C(=O)/C(=C/c2cccc([N+](=O)[O-])c2)SC1c1cccc([N+](=O)[O-])c1 ; method: agar diffusion ; dose: 100 µg/mL ; result: 25 mm
O=c1[nH]c(-c2cc3ccccc3oc2=O)nc2c1C(c1ccccc1)c1ccc3ccccc3c1O2 ; method: agar diffusion / agar ; dose: 150 µg/mL ; result: 14 mm
COC1=CC(=O)C[C@@H](C)[C@]12Oc1c(Cl)c(OC)cc(OC)c1C2=O ; method: agar diffusion / agar ; dose: 5 mg/mL ; result: 19 mm
COc1cc(C2c3ccc4ccccc4c3Oc3nc(-c4cc5ccccc5oc4=O)[nH]c(=O)c32)ccc1O ; method: agar diffusion / agar ; dose: 100 µg/mL ; result: 7 mm
O=C(CNC(=O)c1ccncc1)NN1C(=O)/C(=C/c2ccccc2Cl)SC1c1ccccc1Cl ; method: agar diffusion ; dose: 50 µg/mL ; result: 16.1 mm
Cn1c(=O)c(-c2[nH][nH]c(=O)c2N=Nc2ccc(N)cc2)c(O)c2ccccc21 ; strain: ATCC 28542 ; method: agar diffusion ; dose: 1 mg/mL ; result: 10 mm
Cc1ccc2[nH]c3nc(-n4[nH]c(=O)c5ccccc5c4=O)c4ccccc4c3c2c1 ; strain: MTCC-1973 ; method: agar diffusion / visual reading ; dose: 12.5 µg/mL ; result: 9 mm
Clc1ccc(-c2nn(-c3ccccc3)cc2C2CC(c3ccc(Cl)cc3Cl)=NN2c2ccccc2)cc1 ; dose: 500 µg/mL ; result: 2 mm
N=C1C(=S)N(c2ccc(F)cc2)C(=O)N1c1cc(Cl)cc(Cl)c1 ; method: agar diffusion / agar ; dose: 5 mg/mL ; result: 14 mm
CN(C)c1ccc(/C=C2\SC(c3ccc(N(C)C)cc3)N(NC(=O)CNC(=O)c3ccncc3)C2=O)cc1 ; method: agar diffusion ; dose: 50 µg/mL ; result: 8.3 mm
C[C@@H]1[C@H](O)[C@@H](C)/C=C/C=C/C=C/C=C/C=C/C=C/C=C/[C@H](O[C@@H]2O[C@H](C)[C@@H](O)[C@H](N)[C@@H]2O)C[C@@H]2O[C@](O)(C[C@@H](O)C[C@@H](O)[C@H](O)CC[C@@H](O)C[C@@H](O)CC(=O)O[C@H]1C)C[C@H](O)[C@H]2C(=O)O ; method: agar diffusion / agar ; dose: 30 µg/disc ; result: 19 mm
COc1ccc2[nH]c3c(c2c1)c1ccccc1c1nnc(C(C)(C)C)n13 ; strain: MTCC-1973 ; method: agar diffusion / visual reading ; dose: 25 µg/mL ; result: 5 mm
Brc1ccc(-c2nn(-c3ccccc3)cc2C2CC(c3ccc(-c4ccccc4)cc3)=NN2c2ccccc2)cc1 ; dose: 1000 µg/mL ; result: 6 mm
NC(=S)N/N=C/c1ccccc1O ; method: agar diffusion / agar ; dose: 2 mg/mL ; result: 13 mm
CN(C)C=O ; dose: 50 µg/mL ; result: 6 mm
Cn1c(=O)c(-c2[nH][nH]c(=O)c2C=Nc2cccnc2)c(O)c2ccccc21 ; strain: ATCC 28542 ; method: agar diffusion ; dose: 1 mg/mL ; result: 16 mm
CSc1ccc(C2=NN(c3ccccc3)C(c3cn(-c4ccccc4)nc3-c3ccccc3)C2)cc1 ; dose: 1000 µg/mL ; result: 0 mm
Cc1ccc2[nH]c3nc(-n4nc(-c5ccccc5)c5ccccc5c4=O)c4ccccc4c3c2c1 ; strain: MTCC-1973 ; method: agar diffusion / visual reading ; dose: 25 µg/mL ; result: 8 mm
CC(=Nc1cccc2cccc(N=C(C)c3c(O)ccc4c(C)cc(=O)oc34)c12)c1c(O)ccc2c(C)cc(=O)oc12 ; strain: MTCC 1883 ; dose: 500 µg/mL ; result: 24 mm
Cc1ccc2[nH]c3nc(NNC(=O)c4ccccc4C(=O)O)c4ccccc4c3c2c1 ; strain: MTCC-1973 ; method: agar diffusion / visual reading ; dose: 3.125 µg/mL ; result: 13 mm
COc1ccccc1/C=c1\c(=O)[nH][nH]\c1=C1/C(=O)c2ccccc2N(C)C1=O ; strain: ATCC 28542 ; method: agar diffusion ; dose: 1 mg/mL ; result: 11 mm
COc1ccc2[nH]c3nc(-n4[nH]c(=O)c5ccccc5c4=O)c4ccccc4c3c2c1 ; strain: MTCC-1973 ; method: agar diffusion / visual reading ; dose: 3.125 µg/mL ; result: 13 mm
N=C1C(=S)N(c2ccc(F)cc2)C(=O)N1c1cc(Cl)c(Cl)cc1Cl ; method: agar diffusion / agar ; dose: 5 mg/mL ; result: 16 mm

Repeating the first 4 entries:

structure,strain,method,dose,result
O=C(CNC(=O)c1ccncc1)NN1C(=O)CSC1c1cccc([N+](=O)[O-])c1,-,agar diffusion,50 µg/mL,24.8 mm
COc1ccc2[nH]c3nc(NNC(=O)c4ccccc4C(=O)O)c4ccccc4c3c2c1,MTCC-1973,agar diffusion / visual reading,25 µg/mL,5 mm
O=C(CNC(=O)c1ccncc1)NN1C(=O)CSC1c1cccc(Br)c1,-,agar diffusion,100 µg/mL,18 mm
Cc1ccc(C2c3ccc4ccccc4c3Oc3nc(-c4cc5ccccc5oc4=O)[nH]c(=O)c32)cc1,-,agar diffusion / agar,150 µg/mL,11 mm

An empty or dashed field is not shown. Lines come from different laboratories, so protocols vary.